The exact form of at least one protein or probe is not confirmed.

Protein sequences, listed by entry. Tags and fused reporters are not part of them. Lines headed by an entry give the natural chain unless they say otherwise; changes in a name come on top.
UniProt P09912: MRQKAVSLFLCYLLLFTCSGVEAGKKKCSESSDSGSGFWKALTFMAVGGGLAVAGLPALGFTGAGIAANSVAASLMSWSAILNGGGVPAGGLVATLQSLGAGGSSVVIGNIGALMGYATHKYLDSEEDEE

Here are results for one sequence from publication PMC8047077.

For the data set, the target named is GST-IFI6 (UniProt P09912). The data set can be described thus: EMSA. The following applies: EMSA: 400 mM Tris-HCl pH 8.0; protein 30 min on ice, then probe 30 min at room temperature; 1% agarose gel; recombinant protein. On the technique in general: In EMSA bound probe runs differently from free probe, usually more slowly.

Regarding “ACTGTTTGTTTAAAGACTGGGAGGAGTTGGGGGAGGAGATTAGGTTAAAGGTCTT (double strand) [EnhII/Cp 1715-1770 probe]”, the binding result is “binds”.
